# In-gel DMS probing of monomeric and dimeric HIV-1 RNA

Data from the supplement of Ye et al. 2022, doi:10.1038/s41594-022-00746-2.

Sequence of the HIV-1 NL4-3 5' RNA, positions 1 to 437, as numbered in the source:
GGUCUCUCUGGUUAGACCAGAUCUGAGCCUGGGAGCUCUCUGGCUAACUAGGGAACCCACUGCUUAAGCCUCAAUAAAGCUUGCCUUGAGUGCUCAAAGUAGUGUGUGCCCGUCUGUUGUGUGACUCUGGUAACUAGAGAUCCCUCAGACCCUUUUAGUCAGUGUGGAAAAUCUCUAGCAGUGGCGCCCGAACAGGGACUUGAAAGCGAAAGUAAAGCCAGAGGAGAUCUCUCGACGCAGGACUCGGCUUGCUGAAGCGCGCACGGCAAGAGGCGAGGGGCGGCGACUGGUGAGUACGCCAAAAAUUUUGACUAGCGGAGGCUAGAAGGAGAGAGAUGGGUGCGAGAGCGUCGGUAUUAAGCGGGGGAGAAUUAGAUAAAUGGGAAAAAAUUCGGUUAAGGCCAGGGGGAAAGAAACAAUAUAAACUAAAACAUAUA

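Mutant RNA libraries with 1G, 2G or 3G starts, with or without cap, were folded at 37 °C for 30 min. High salt was 300 mM KCl and 5 mM MgCl2, low salt 40 mM KCl and 0.1 mM MgCl2; monomer and dimer were parted on a native gel. Gel slices were treated with 170 mM dimethyl sulfate for 15 min at 37 °C and read by mutational profiling against an ethanol control.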

Scale: normalised reactivity, A and C only; low values point to paired or protected bases, higher values to unpaired ones. One numbering serves 1G, 2G and 3G. A position is written with its base.

position	domain	2G capped high-salt monomer	1G capped high-salt dimer
A19	TAR	0.03	0.04
A21	TAR	0.57	0.57
A26	TAR	0.09	0.25
C44	TAR	0.03	0.04
A47	TAR	0.11	0.22
A54	TAR	0.14	0.22
C58	PolyA	0.96	0.10
A59	PolyA	0.49	0.33
C63	PolyA	0.21	0.04
A66	PolyA	1.05	1.07
C69	PolyA	0.03	0.04
A73	PolyA	0.03	0.04
A78	PolyA	0.74	0.64
C80	PolyA	0.40	0.42
A89	PolyA	0.49	0.40
C93	PolyA	0.03	0.04
A96	PolyA	0.25	0.26
C114	none	0.24	0.29
A133	PBS	1.47	1.54
A136	PBS	0.11	0.10
C151	PBS	0.77	0.74
C173	PBS	0.03	0.04
C185	PBS	0.44	0.45
A194	PBS	1.05	0.88
C199	PBS	0.44	0.51
A205	PBS	0.34	0.38
A214	PBS	0.25	0.31
A215	PBS	0.50	0.70
C218	antiPAS	0.03	0.06
A222	antiPAS	0.29	0.30
A268	SL1	0.28	0.18
C297	SL2	0.18	0.14
A302	none	1.17	1.22
A311	none	1.19	1.36
A314	SL3	0.04	0.04
A332	none	0.61	0.52
A345	none	1.25	1.31
C352	none	0.41	0.45
A378	none	0.22	0.22
C393	none	0.68	0.66
C402	none	0.03	0.04
A404	none	0.21	0.23
A410	none	0.46	0.39
C417	none	0.85	0.84
A418	none	0.66	0.64
A419	none	0.50	0.50
A423	none	0.42	0.47
A425	none	0.53	0.56
A430	none	0.56	0.59

The first 3 entries again:

{"position": "A19", "domain": "TAR", "2G capped high-salt monomer": 0.03, "1G capped high-salt dimer": 0.04}
{"position": "A21", "domain": "TAR", "2G capped high-salt monomer": 0.57, "1G capped high-salt dimer": 0.57}
{"position": "A26", "domain": "TAR", "2G capped high-salt monomer": 0.09, "1G capped high-salt dimer": 0.25}